Anti-infective test results gathered from many reports (values: NIAID ChemDB through PubChem).

Shared fields: toxicity to cultured cells; cells: PBMC; measure: CC50

CCn is the concentration with n% toxicity to the cells. Neighbouring rows are from separate reports. Blank or dashed fields: not listed here.

structure	method	value
CN1c2c(-c3ccccc3)nn(CC(=O)N/N=C/c3ccc([N+](=O)[O-])cc3)c2-c2ccccc2S1(=O)=O	-	>100 µM
CCOc1ncnc2c1ncn2[C@@H]1O[C@H](CO)C[C@@H]1F	-	>80 µM
C[n+]1cccc(-c2c3nc(c(-c4ccccc4)c4ccc([nH]4)c(-c4ccc[n+](C)c4)c4nc(c(-c5ccccc5)c5ccc2[nH]5)C=C4)C=C3)c1	-	>100 µM
CN1CCN(CCSc2nccc(-c3ccc(-c4cccs4)s3)n2)CC1	-	100 µM
Cc1cccc(-c2c3nc(c(-c4cccc(C)c4)c4ccc([nH]4)c(-c4cccc(C)c4)c4nc(c(-c5cccc(C)c5)c5ccc2[nH]5)C=C4)C=C3)c1	-	>100 µM
Cc1ccccc1CNC(=O)NCCc1ccc2c(n1)NCCC2	-	50 µM
S=C(NCCC1=CCCCC1)Nc1ccc(Cl)cn1	-	>100 µM
Cc1cn([C@H]2C[C@H](N=[N+]=[N-])[C@@H](COP(=O)(OCCSC(=O)C(C)(C)C)OCCSC(=O)C(C)(C)C)O2)c(=O)[nH]c1=O	-	>10 µM
O=C(NCCc1ccc2c(n1)NCCC2)Nc1cccc(-c2ccccc2Cl)n1	-	4.8 µM
OC[C@@H]1C[C@H](F)[C@H](n2cnc3c(F)ncnc32)O1	-	>80 µM
CN(C)CCNCc1ccc(-c2cccc(-c3ccc(CNCCN(C)C)cc3)n2)cc1	-	10 µM
NCc1ccc(S(=O)(=O)NCCc2ccc3c(n2)NCCC3)cc1	-	50 µM
OC[C@@H]1C[C@H](F)[C@H](n2cnc3c(I)ncnc32)O1	-	>80 µM
OCCN(CCO)CCOc1nc(-c2cccs2)cc(-c2cc3ccccc3s2)n1	-	100 µM
Nc1ccn([C@H]2C[C@@H](CO)[C@H](O)[C@@H]2O)c(=O)n1	-	>100 µM
Oc1ccc(-c2c3nc(c(-c4ccc(O)cc4)c4ccc([nH]4)c(-c4ccc(O)cc4)c4nc(c(-c5ccc(O)cc5)c5ccc2[nH]5)C=C4)C=C3)cc1	-	>100 µM
Cc1ccc(C[C@@H](C)[C@@H](C)Cc2ccc(C)c(C)c2)cc1C	MTS	60 µM
OCCNc1nc(-c2cccs2)cc(-c2cccs2)n1	-	100 µM
C/C(=N\NC(=O)c1ccc(Cl)cc1)c1cccc(/C(C)=N/NC(=O)c2ccc(Cl)cc2)n1	MTT	>100 µM
CC(=O)OC[C@H]1O[C@@H](SCCOP(=O)(O)OC[C@H]2O[C@@H](n3cc(C)c(=O)[nH]c3=O)C[C@@H]2N=[N+]=[N-])[C@H](OC(C)=O)[C@@H](OC(C)=O)[C@@H]1OC(C)=O	-	>10 µM
Cc1ccc(CNC(=O)NCCc2ccc3c(n2)NCCC3)cc1	-	50 µM
CN1c2c(-c3ccccc3)nn(CC(=O)N/N=C/c3ccc(Cl)cc3Cl)c2-c2ccccc2S1(=O)=O	-	>100 µM
COc1ccc2nc(Cl)c(/C=C/C(=O)c3c4ccccc4cc4ccccc34)cc2c1	MTS	10.2 µM
COc1ccc(/C=N/NC(=O)Cn2nc(-c3ccccc3)c3c2-c2ccccc2S(=O)(=O)N3C)c(OC)c1OC	-	>100 µM
O=C(O)c1ccc(-c2c3nc(c(-c4ccc(C(=O)O)cc4)c4ccc([nH]4)c(-c4ccc(C(=O)O)cc4)c4nc(c(-c5ccc(C(=O)O)cc5)c5ccc2[nH]5)C=C4)C=C3)cc1	-	>100 µM
CN1c2c(-c3ccccc3)nn(CC(=O)N/N=C/c3ccc(Br)cc3)c2-c2ccccc2S1(=O)=O	-	97 µM
COc1ccc2nc(Cl)c(/C=C/C(=O)c3ccsc3)cc2c1	MTS	14 µM
Cc1cn([C@H]2C[C@H](N=[N+]=[N-])[C@@H](COP(=O)(O)OCCS[C@@H]3O[C@H](CO)[C@@H](O)[C@H](O)[C@H]3O)O2)c(=O)[nH]c1=O	-	>10 µM
CN(C)CCSc1nc(-c2cccs2)cc(-c2cccs2)n1	-	100 µM
Cc1ccc2nc(Cl)c(/C=C/C(=O)c3ccc(Cl)s3)cc2c1	MTS	25.7 µM
CN1CCN(CCSc2nc(-c3ccc4ccccc4c3)c3ccccc3n2)CC1	-	100 µM
COc1ccc2nc(Cl)c(/C=C/C(=O)c3cc(Cl)sc3Cl)cc2c1	MTS	2.7 µM
Nc1nc(=O)n([C@H]2O[C@@H](CO)C=C2F)cc1F	-	>100 µM
O=C(NCCc1cccc(-n2ccnc2)n1)Nc1cccc(F)c1	-	50 µM
C[n+]1ccc(-c2c3nc(c(-c4ccccc4)c4ccc([nH]4)c(-c4ccccc4)c4nc(c(-c5cc[n+](C)cc5)c5ccc2[nH]5)C=C4)C=C3)cc1	-	>100 µM
CC(C)n1nccc1NC(=O)NCCc1ccc2c(n1)NCCC2	-	0.83 µM
Cc1cnc(SCCN(C)C)nc1-c1ccc(-c2nc(SCCN(C)C)ncc2C)s1	-	10 µM

The last 5 rows once more:

structure,method,value
Nc1nc(=O)n([C@H]2O[C@@H](CO)C=C2F)cc1F,-,>100 µM
O=C(NCCc1cccc(-n2ccnc2)n1)Nc1cccc(F)c1,-,50 µM
C[n+]1ccc(-c2c3nc(c(-c4ccccc4)c4ccc([nH]4)c(-c4ccccc4)c4nc(c(-c5cc[n+](C)cc5)c5ccc2[nH]5)C=C4)C=C3)cc1,-,>100 µM
CC(C)n1nccc1NC(=O)NCCc1ccc2c(n1)NCCC2,-,0.83 µM
Cc1cnc(SCCN(C)C)nc1-c1ccc(-c2nc(SCCN(C)C)ncc2C)s1,-,10 µM